Reference: PubChem BioAssay AID652067 (The Scripps Research Institute Molecular Screening Center, 2013)
The list shows a part of the results, in another mix than the full data. Calls of active or inactive are those of the source.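 Rule for the calls: active = activation above the mean of all tested compounds plus 3 SD (cut at about 5.5% in these data); inactive = the rest.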

Each compound was assayed on DAF-12 nuclear receptor (Haemonchus contortus) (assay: H. contortus DAF-12 nuclear receptor activators, primary screen, cell-based, luminescence, HEK293, lit1-tk-luc reporter (AID 652067;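 note: 100% = response to 3 µM Δ7-dafachronic acid high control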)). Conditions: HEK293 hcDAF-12 lit1-tk-luc reporter, at 6.8 µM, active compounds read high, 0% DMSO, 100% Δ7-dafachronic acid.

| SMILES | activation |
| --- | --- |
| O=C1CCN(Cc2ccccc2)CC1 | inactive: -1.52% |
| O=C(NCC1(N2CCCCC2)CCCCC1)c1ccc(F)cc1 | inactive: 0.05% |
| CCCCn1nnnc1C(c1cc2ccccc2o1)N1CCC(n2c(=O)[nH]c3ccccc32)CC1 (stereo not given) | inactive: 3.06% |
| O=P1(N(CCCl)CCCl)SCCCS1 | inactive: -1.14% |
| CCCCOc1ccc(C(=O)NCC2(N3CCOCC3)CCCCC2)cc1 | inactive: 1.05% |
| COc1ccc(NC2CCN(CCc3ccccc3)CC2)c(OC)c1 | inactive: -2.1% |
| CCOC(=O)N1CCC(Nc2ccc(F)cc2)CC1 | inactive: -0.44% |
| O=C(NCC1(N2CCOCC2)CCCCC1)c1cc2ccccc2o1 | inactive: 3.02% |
| O=c1[nH]c2ccccc2n1C1CCN(C(c2ccccc2OC(F)(F)F)c2nnnn2C2CCCCC2)CC1 (stereo not given) | inactive: 0.33% |
| O=C(NCC1(N2CCCCC2)CCCCC1)c1ccc(Cl)nc1 | inactive: 1.08% |
| Cc1cc(C)cc(N(C(=O)c2ccccc2)C2CCN(C(=O)OC(C)(C)C)CC2)c1 | inactive: -0.36% |
| CCOC(=O)N1CCC(Nc2ccc(OC)cc2)CC1 | inactive: -0.9% |
| CCCCn1nnnc1C(c1ccc(OC)cc1)N1CCC(n2c(=O)[nH]c3ccccc32)CC1 (stereo not given) | inactive: 0.55% |
| O=C(OC1CN2CCC1CC2)C1c2ccccc2Oc2ccccc21 (stereo not given) | inactive: -0.77% |
| O=c1[nH]c2ccccc2n1C1CCN(C(c2cc3ccccc3o2)c2nnnn2C2CCCCC2)CC1 (stereo not given) | inactive: 2.06% |
| O=C(NCC1(N2CCCCC2)CCCCC1)c1ccc(Cl)s1 | inactive: -0.04% |
| N#CC1(Nc2ccccc2)CCN(Cc2ccccc2)CC1 | inactive: -0.43% |
| COc1ccc(Cl)cc1C(=O)NCC1(N2CCOCC2)CCCCC1 | inactive: 0.8% |
| O=C(NCC1(N2CCCCC2)CCCCC1)c1ccc(=O)[nH]c1 | inactive: 3.98% |
| CCCCn1nnnc1C(c1cccs1)N1CCC(n2c(=O)[nH]c3ccccc32)CC1 (stereo not given) | inactive: -2.69% |
| CCCCn1nnnc1C(CC)N1CCC(n2c(=O)[nH]c3ccccc32)CC1 (stereo not given) | inactive: -0.01% |
| O=C(NCC1(N2CCCCC2)CCCCC1)c1cccs1 | inactive: -0.42% |
| COc1ccc(C(=O)NCC2(N3CCCCC3)CCCCC2)cc1 | inactive: -1.44% |
| CCC(c1nnnn1C1CCCC1)N1CCC(n2c(=O)[nH]c3ccccc32)CC1 (stereo not given) | inactive: -2.5% |
| COc1ccc(C(=O)NCC2(N3CCCCC3)CCCCC2)c(OC)c1OC | inactive: -0.51% |
| CC(C)(C)OC(=O)N1CCC(N(C(=O)c2ccccc2)c2ccc(F)cc2)CC1 | inactive: 2.26% |
| CSc1ccccc1C(=O)NCC1(N2CCCCC2)CCCCC1 | inactive: -1.94% |
| Cc1cccc(NC2(C#N)CCN(Cc3ccccc3)CC2)c1 | inactive: 0.67% |

| SMILES | activation |
| --- | --- |
| O=C(NCC1(N2CCCCC2)CCCCC1)c1cncc(Br)c1 | inactive: 4.29% |
| CN1CCC(Nc2cccc(F)c2)CC1 | inactive: 0.63% |
| Cc1ccc(C(=O)NCC2(N(C)C)CCCCC2)o1 | inactive: 1.54% |
| CCCOc1ccc(C(=O)NCC2(N(C)C)CCCCC2)cc1OC | inactive: 0.07% |
| COc1ccc(C(c2nnnn2C2CCCC2)N2CCC(n3c(=O)[nH]c4ccccc43)CC2)cc1 (stereo not given) | inactive: -1.39% |
| COC(=O)C1(Nc2ccccc2)CCN(Cc2ccccc2)CC1 | inactive: -0.41% |
| COc1ccc(CN(CCCl)CCCl)cc1Cl | inactive: -0.93% |
| CN(C)c1cccc(C(=O)NCC2(N3CCCCC3)CCCCC2)c1 | inactive: -1.07% |
| CC(C)c1ccc(NC2CCN(C(=O)OC(C)(C)C)CC2)cc1 | inactive: -0.11% |
| CCCCn1nnnc1C(c1ccnc2ccccc12)N1CCC(n2c(=O)[nH]c3ccccc32)CC1 (stereo not given) | inactive: -1.98% |
| COc1cc(OC)c(C(=O)NCC2(N(C)C)CCCCC2)cc1OC | inactive: -1.2% |
| O=C(NCC1(N2CCOCC2)CCCCC1)c1cc(F)c(F)cc1Cl | inactive: 0.35% |
| CCC(c1nnnn1C(C)(C)C)N1CCC(n2c(=O)[nH]c3ccccc32)CC1 (stereo not given) | inactive: -1.11% |
| O=C(NCC1(N2CCCCC2)CCCCC1)c1cccc(C(F)(F)F)c1 | inactive: 0.59% |
| CCCCn1nnnc1C(c1cccc2ccccc12)N1CCC(n2c(=O)[nH]c3ccccc32)CC1 (stereo not given) | inactive: -1% |
| CN1CCN(CCOC(=O)C(O)(c2ccccc2)c2ccccc2)CC1 | inactive: 2.31% |
| COc1ccc(NC2CCN(C(=O)OC(C)(C)C)CC2)cc1 | inactive: -0.78% |
| CC(C)c1ccc(C(=O)NCC2(N3CCOCC3)CCCCC2)cc1 | inactive: 0.11% |
| COc1cc(C(=O)NCC2(N3CCCCC3)CCCCC2)ccc1OC(F)F | inactive: 0.64% |
| O=C(NCC1(N2CCOCC2)CCCCC1)c1cc(=O)[nH]c2ccccc12 | inactive: -1.79% |
| CC(C)(C)n1nnnc1C(c1ccccc1OC(F)(F)F)N1CCC(n2c(=O)[nH]c3ccccc32)CC1 (stereo not given) | inactive: -0.97% |
| O=C(NCC1(N2CCCCC2)CCCCC1)c1ccc(OC(F)F)cc1 | inactive: 1.78% |
| O=C(NCC1(N2CCCCC2)CCCCC1)c1cccc([N+](=O)[O-])c1 | inactive: -0.04% |
| CSc1ccc(C(=O)NCC2(N3CCOCC3)CCCCC2)cc1 | inactive: -0.5% |
| CCN1CCC(Nc2ccc(Cl)cc2)CC1 | inactive: -0.12% |
| N#CC1(Nc2ccccc2)CCN(CCc2ccccc2)CC1 | inactive: -1.37% |
| O=c1[nH]c2ccccc2n1C1CCN(C(c2ccccc2OC(F)(F)F)c2nnnn2C2CCCC2)CC1 (stereo not given) | inactive: -1.65% |
